Test results taken from patent US6110888A, “Substituted phenols as fragrance, flavor and antimicrobial compounds” (Takasago International Corporation, priority 1999, dated 2000).

Assay: Odor qualities by expert panel of perfumers
Details: neat or in solution on perfume blotters; approximately 25 perfumers

Compound | Odor Qualities
C=CCc1cc(C(C)(C)C)ccc1O [Example 5, Ortho Allyl Para tert-Butyl Phenol] | leathery, woody, herbal
CCCc1cc(C(C)(C)C)ccc1O [Example 6, Ortho Propyl Para tert-Butyl Phenol] | woody, rubbery, floral
